Reference: US7115636B2, “Hetrocyclic aryl sulphonamides” (Bayer Healthcare AG, priority 2001, dated 2006)

Key:
[1] = system: HCMV (human cytomegalovirus); assay: Anti-HCMV cytopathogenicity test; type: cell-based; conditions: selectivity index = CC50 (HELF)/EC50 (HCMV)
Procedure: Anti-HCMV (anti-human cytomegalovirus) and anti-MCMV (anti-murine cytomegalovirus) cytopathogenicity tests: The test compounds were employed as 50 millimolar (mM) solutions in dimethyl sulfoxide (DMSO). Ganciclovir, foscarnet and cidofovir served as reference compounds. After the addition of 2 μl in each case of the 50, 5, 0.5 and 0.05 mM DMSO stock solutions to 98 μl each of cell culture medium in row […] in duplicate, 1:2 dilutions using 50 μl each of medium up to row 11 of the 96-well plate were carried out. The wells in rows 1 and 12 each contained 50 μl of medium. 150 μl each of a suspension of 1×10^4 cells (human lung fibroblasts [HELF]) were then pipetted into the wells (row 1=cell control) or a mixture of HCMV-infected and non-infected HELF cells (M.O.I.=0.001-0.002), i.e. 1-2 infected cells to 1000 non-infected cells, was pipetted into rows 2-12. Row 12 (without substance) served as a virus control. The final test concentrations were 250-0.0005 μM. The plates were incubated at 37° C./5% CO2 for 6 days, i.e. until all cells were infected in the virus controls (100% cytopathogenic effect [CPE]). The wells were then fixed by addition of a mixture of formalin and Giemsa's stain and stained (30 minutes), washed with double-distilled water and dried at 50° C. in a drying oven. The plates were then evaluated visually using an overhead microscope (Plaque multiplier from Technomara). […]

[2] = system: MCMV (murine cytomegalovirus); assay: Anti-MCMV cytopathogenicity test; type: cell-based; conditions: selectivity index, CC50 (3T3)/EC50 (MCMV)
Procedure: Anti-HCMV (anti-human cytomegalovirus) and anti-MCMV (anti-murine cytomegalovirus) cytopathogenicity tests:
The test compounds were employed as 50 millimolar (mM) solutions in dimethyl sulfoxide (DMSO). Ganciclovir, foscarnet and cidofovir served as reference compounds. After the addition of 2 μl in each case of the 50, 5, 0.5 and 0.05 mM DMSO stock solutions to 98 μl each of cell culture medium in row 2 A-H in duplicate, 1:2 dilutions using 50 μl each of medium up to row 11 of the 96-well plate were carried out. The wells in rows 1 and 12 each contained 50 μl of medium. 150 μl each of a suspension of 1×10^4 cells (human lung fibroblasts [HELF]) were then pipetted into the wells (row 1=cell control) or a mixture of HCMV-infected and non-infected HELF cells (M.O.I.=0.001–0.002), i.e. 1–2 infected cells to 1000 non-infected cells, was pipetted into rows 2–12. Row 12 (without substance) served as a virus control. The final test concentrations were 250–0.0005 μM. The plates were incubated at 37° C./5% CO2 for 6 days, i.e. until all cells were infected in the virus controls (100% cytopathogenic effect [CPE]). The wells were then fixed by addition of a mixture of formalin and Giemsa's stain and stained (30 minutes), washed with double-distilled water and dried at 50° C. in a drying oven. The plates were then evaluated visually using an overhead microscope (Plaque multiplier from Technomara). […]

| SMILES | SI HCMV [1] | SI MCMV [2] |
| --- | --- | --- |
| CC1(C(=O)Nc2ccc(NS(=O)(=O)c3cccc(-c4noc([C@@H](N)CCCCN)n4)c3)cc2)CC1 [Example 1] | >8929 | 514 |
| CC(C)[C@H](N)c1nc(-c2ccc(S(=O)(=O)Nc3cccc(NC(=O)C(C)(C)CF)c3)cc2)no1 [Example 3, N-(3-{[(4-{5-[(1S)-1-Amino-2-methylpropyl]-1,2,4-oxadiazol-3-yl}phenyl)sulphonyl]amino}phenyl)-3-fluoro-2,2-dimethylpropanamide] | 3378 | 851 |
